Residue numbers refer to the chain shown, from its start.
Tests used:
HA A/VN/1194/04 (H5) = HA A/VN/1194/04 (H5) (influenza A virus H5 A/VN/1194/04); experiment: cell-based or functional assay
[1] = target: H7N1 A/ck/FPV/Ro/34 HA on pseudotyped virus (influenza A virus H7N1 …, UniProt P03459 19-563); experiment: cell-based or functional assay
[2] = target: H7N7 A/Netherlands/219/03 HA protein (influenza A virus H7N7 …); experiment: ELISA on coated HA
[3] = target: H5N1 A/Viet Nam/1/05 HA protein (influenza A virus H5N1 A/Viet Nam/1/05); experiment: ELISA on coated HA
[4] = target: H6N5 A/shearwater/Australia/1/72 HA protein (influenza A virus H6N5 …); experiment: ELISA on coated HA
[5] = target: H7N3 A/Canada/444/04 HA protein (influenza A virus H7N3 A/Canada/444/04); experiment: ELISA on coated HA
[6] = target: H8N4 A/Alberta/357/84 HA protein (influenza A virus H8N4 A/Alberta/357/84); experiment: ELISA on coated HA
[7] = target: H5N1 A/Viet Nam/1203/04 HA protein (influenza A virus H5N1 A/Viet …); experiment: ELISA on coated HA
[8] = target: H9N2 A/Hong Kong/1073/99 HA protein (influenza A virus H9N2 A/Hong …); experiment: ELISA on coated HA
[9] = target: H10N4 A/mink/Sweded/3900/84 HA protein (influenza A virus H10N4 …); experiment: ELISA on coated HA

B1: FI6 variant 4 (antibody, V domains shown)
VH: QVQLVQSGGGVVQPGRSLRLSCVASGFTFSTYAMHWVRQAPGRGLEWVAVISYDANYKYYADSVKGRFSISRDNSQNTLHLEMNTLRTEDTALYYCAKDSQLRSLLYFEWLSQGYFEPWGQGTLVTVTS
VL: DIVMTQSPDSLAVSLGERATINCKSSQSVTFNYKNYLAWYQQKPGQPPKLLIYWASTRESGVPDRFSGSGSGTDFTLTISSLQAEDVAVYYCQQHYRTPPTFGQGTKVEIK
B1 was tested, and the “Neutralization H5 A/VN/1194/04 pseudovirus, IC50” value (HA A/VN/1194/04 (H5)) was 0.0035 µg/mL and the “Neutralization H7 A/ck/FPV Rostock/34 pseudovirus, IC50” value [1] was 0.0093 µg/mL.

B2: FI6 variant 3 (antibody, V domains shown)
VH: QVQLVESGGGVVQPGRSLRLSCAASGFTFSTYAMHWVRQAPGKGLEWVAVISYDANYKYYADSVKGRFTISRDNSKNTLYLQMNSLRAEDTAVYYCAKDSQLRSLLYFEWLSQGYFDYWGQGTLVTVSS
VL: B1 VL
B2 gave an EC50 [2] of 0.029 µg/mL.

B3: FI6 variant 2 (antibody, V domains shown)
VH: B1 VH with A55G, Q76N, E117D
VL: B1 VL with V3Q, E17A, L50V, T57A
Work on B3 yielded an EC50 [3] of 0.01 µg/mL, an EC50 [4] of 0.041 µg/mL and an EC50 [5] of 0.033 µg/mL. The EC50 [6] was 0.033 µg/mL, the EC50 [7] was 0.014 µg/mL and the EC50 [8] was 0.014 µg/mL. It also gave an EC50 [9] of 0.09 µg/mL.

B4: FI6 variant 5 (antibody, V domains shown)
VH: B1 VH
VL: B1 VL with Y33N
For B4, the “Neutralization H5 A/VN/1194/04 pseudovirus, IC50” value (HA A/VN/1194/04 (H5)) was 0.0054 µg/mL and the “Neutralization H7 A/ck/FPV Rostock/34 pseudovirus, IC50” value [1] was 0.022 µg/mL.

Reference: patent publication US20110274702A1 (INSTITUTE FOR RESEARCH IN BIOMEDICINE, published 2011)
